PubChem BioAssay AID624099, ICCB-Longwood | 2012
Screen: 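Host factors E2 relies on to silence an HPV18 LCR reporter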 (primary screen). Cell system: human C33A cervical carcinoma cells (HPV-negative) stably expressing BPV1 E2 and an HPV18 LCR luciferase reporter. Reagents: siRNA pool against human genes, 40 nM. Timing: 72 h. Measured: 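HPV18 LCR reporter light per well, converted to plate-wise z-scores that exclude control wells, and averaged over triplicate plates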. Scale: mean z-score and z-score: higher = stronger reporter signal, weaker E2 silencing. Call rule: 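Mean z ≥ 2 together with z ≥ 2 in two or more of the three replicates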.
The whole screen tested about 21,000 reagents; shown is a random part of them. 497 of all reagents (2.4%) were called active. 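Higher z means weaker E2 silencing; only reporter increases were scored, and knock-downs that hurt cell survival may mask genuine repressor factors.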 The numbers tell different reagents against one gene apart.

Target gene	pool no.	mean z-score	z-score, replicate A	z-score, replicate B	z-score, replicate C	Outcome
KRT8 (keratin 8)	1	1.24	1.3	1.25	1.17	inactive
TOB1-AS1 (TOB1 antisense RNA 1)	1	0.16	-0.02	0.22	0.26	inactive
AGO4 (argonaute RISC component 4)	1	-0.73	-0.77	-0.84	-0.59	inactive
APOH (apolipoprotein H)	1	0.48	0.28	0.78	0.39	inactive
S100A4 (S100 calcium binding protein A4)	1	1.14	1.27	1.08	1.08	inactive
DPPA2 (developmental pluripotency associated 2)	1	0.92	0.78	1.05	0.93	inactive
KRT35 (keratin 35)	1	0.3	0.62	0.36	-0.09	inactive
NASP (nuclear autoantigenic sperm protein)	1	-0.91	-0.98	-0.52	-1.23	inactive
PLA2G2C (phospholipase A2 group IIC)	1	-2.9	-2.8	-3.19	-2.71	inactive
TMEM229A (transmembrane protein 229A)	1	0.73	0.33	1.01	0.83	inactive
IRGQ (immunity related GTPase Q)	1	0.11	-0.21	0.23	0.31	inactive
CA5B (carbonic anhydrase 5B)	1	-1.52	-1.54	-1.54	-1.48	inactive
LINC01734 (long independently transcribed non-coding RNA 1734)	1	-0.45	-0.68	-0.45	-0.21	inactive
UBE2V2 (ubiquitin conjugating enzyme E2 V2)	1	0.12	0.22	0.08	0.07	inactive
HPS5 (HPS5 biogenesis of lysosomal organelles complex 2 subunit 2)	1	0.7	1.16	0.41	0.55	inactive
ZNF469 (zinc finger protein 469)	1	-0.28	-0.23	-0.21	-0.4	inactive
FAM89A (family with sequence similarity 89 member A)	1	0.88	0.76	0.81	1.08	inactive
RPLP1P7 (ribosomal protein lateral stalk subunit P1 pseudogene 7)	1	1.44	1.29	1.92	1.12	inactive
LINC02393 (long independently transcribed non-coding RNA 2393)	1	0.65	0.93	0.74	0.29	inactive
GSTA5 (glutathione S-transferase alpha 5)	1	-0.48	-0.47	-0.33	-0.64	inactive
CCNG1 (cyclin G1)	1	-0.09	-0.13	-0.22	0.08	inactive
NPB (neuropeptide B)	1	-0.15	-0.04	-0.19	-0.23	inactive
SDC2 (syndecan 2)	1	0.45	-0.04	0.56	0.82	inactive
ANAPC7 (anaphase promoting complex subunit 7)	1	0.84	0.86	0.91	0.76	inactive
ZNF200 (zinc finger protein 200)	1	-1.97	-1.61	-1.94	-2.37	inactive
TTF2 (transcription termination factor 2)	1	-0.25	-0.23	-0.3	-0.22	inactive
SAXO2 (stabilizer of axonemal microtubules 2)	1	0.66	0.74	0.2	1.04	inactive
CXCL1 (C-X-C motif chemokine ligand 1)	1	-0.08	0.03	-0.09	-0.2	inactive
LINC02693 (long independently transcribed non-coding RNA 2693)	1	0.94	0.92	0.72	1.19	inactive
SNX8 (sorting nexin 8)	1	-0.88	-0.72	-0.71	-1.22	inactive
TRAPPC13 (trafficking protein particle complex subunit 13)	1	0.25	0.4	0.44	-0.09	inactive
ELAC1 (elaC ribonuclease Z 1)	1	-0.63	-0.51	-0.84	-0.55	inactive
WDR6 (WD repeat domain 6)	1	0.76	1.15	0.61	0.52	inactive
LOC401620 (retired record)	1	-1.03	-1.29	-0.93	-0.87	inactive
PITPNA (phosphatidylinositol transfer protein alpha)	1	-1.68	-1.83	-1.32	-1.9	inactive
FAT1 (FAT atypical cadherin 1)	1	2.07	2.26	2.41	1.54	active
TREM2 (triggering receptor expressed on myeloid cells 2)	1	-1	-0.95	-1.19	-0.87	inactive
EEA1 (early endosome antigen 1)	1	0.99	1.12	1.11	0.74	inactive
IL17RC (interleukin 17 receptor C)	1	0.57	0.79	0.68	0.24	inactive

In a second layout: entries from further up
{"Target gene": "ZNF200 (zinc finger protein 200)", "pool no.": 1, "mean z-score": -1.97, "z-score, replicate A": -1.61, "z-score, replicate B": -1.94, "z-score, replicate C": -2.37, "Outcome": "inactive"}
{"Target gene": "TTF2 (transcription termination factor 2)", "pool no.": 1, "mean z-score": -0.25, "z-score, replicate A": -0.23, "z-score, replicate B": -0.3, "z-score, replicate C": -0.22, "Outcome": "inactive"}
{"Target gene": "SAXO2 (stabilizer of axonemal microtubules 2)", "pool no.": 1, "mean z-score": 0.66, "z-score, replicate A": 0.74, "z-score, replicate B": 0.2, "z-score, replicate C": 1.04, "Outcome": "inactive"}
{"Target gene": "CXCL1 (C-X-C motif chemokine ligand 1)", "pool no.": 1, "mean z-score": -0.08, "z-score, replicate A": 0.03, "z-score, replicate B": -0.09, "z-score, replicate C": -0.2, "Outcome": "inactive"}
{"Target gene": "LINC02693 (long independently transcribed non-coding RNA 2693)", "pool no.": 1, "mean z-score": 0.94, "z-score, replicate A": 0.92, "z-score, replicate B": 0.72, "z-score, replicate C": 1.19, "Outcome": "inactive"}
{"Target gene": "SNX8 (sorting nexin 8)", "pool no.": 1, "mean z-score": -0.88, "z-score, replicate A": -0.72, "z-score, replicate B": -0.71, "z-score, replicate C": -1.22, "Outcome": "inactive"}
{"Target gene": "TRAPPC13 (trafficking protein particle complex subunit 13)", "pool no.": 1, "mean z-score": 0.25, "z-score, replicate A": 0.4, "z-score, replicate B": 0.44, "z-score, replicate C": -0.09, "Outcome": "inactive"}
{"Target gene": "ELAC1 (elaC ribonuclease Z 1)", "pool no.": 1, "mean z-score": -0.63, "z-score, replicate A": -0.51, "z-score, replicate B": -0.84, "z-score, replicate C": -0.55, "Outcome": "inactive"}
{"Target gene": "WDR6 (WD repeat domain 6)", "pool no.": 1, "mean z-score": 0.76, "z-score, replicate A": 1.15, "z-score, replicate B": 0.61, "z-score, replicate C": 0.52, "Outcome": "inactive"}
{"Target gene": "LOC401620 (retired record)", "pool no.": 1, "mean z-score": -1.03, "z-score, replicate A": -1.29, "z-score, replicate B": -0.93, "z-score, replicate C": -0.87, "Outcome": "inactive"}
{"Target gene": "PITPNA (phosphatidylinositol transfer protein alpha)", "pool no.": 1, "mean z-score": -1.68, "z-score, replicate A": -1.83, "z-score, replicate B": -1.32, "z-score, replicate C": -1.9, "Outcome": "inactive"}

The results go on.
Target gene	pool no.	mean z-score	z-score, replicate A	z-score, replicate B	z-score, replicate C	Outcome
FAM228B (family with sequence similarity 228 member B)	1	-0.05	-0.04	0.14	-0.25	inactive
DNHD1 (dynein heavy chain domain 1)	1	0.99	0.97	1.17	0.84	inactive
DNHD1 (dynein heavy chain domain 1)	2	-0.02	-0.46	0.14	0.24	inactive
DNHD1 (dynein heavy chain domain 1)	3	0.29	0.18	0.39	0.32	inactive
DNHD1 (dynein heavy chain domain 1)	4	0.86	0.56	1.03	0.99	inactive
FABP5P1 (fatty acid binding protein 5 pseudogene 1)	1	0.04	-0.07	0.27	-0.08	inactive
PLTP (phospholipid transfer protein)	1	-0.14	-0.01	-0.08	-0.32	inactive
IRF3 (interferon regulatory factor 3)	1	-0.75	-0.79	-0.7	-0.75	inactive
TPP2 (tripeptidyl peptidase 2)	1	1.24	1.4	1.26	1.07	inactive
PIK3IP1 (phosphoinositide-3-kinase interacting protein 1)	1	1.77	2.1	1.61	1.6	inactive
RPS20 (ribosomal protein S20)	1	-1.85	-1.99	-1.98	-1.59	inactive
OSBPL8 (oxysterol binding protein like 8)	1	-1.74	-1.56	-1.65	-2.01	inactive
DPPA4 (developmental pluripotency associated 4)	1	0.65	1.44	0.87	-0.34	inactive
ELOA (elongin A)	1	-1.08	-1.17	-1.21	-0.85	inactive
GSTA3 (glutathione S-transferase alpha 3)	1	-0.79	-0.96	-0.67	-0.72	inactive
HLA-DPB1 (major histocompatibility complex, class II, DP beta 1)	1	-1.24	-1.3	-1.41	-1.01	inactive
GJA1 (gap junction protein alpha 1)	1	1.51	1.43	1.22	1.88	inactive
ZNF689 (zinc finger protein 689)	1	0.45	0.23	0.48	0.64	inactive
ACAP3 (ArfGAP with coiled-coil, ankyrin repeat and PH domains 3)	1	1.37	0.78	1.73	1.61	inactive
C22orf23 (chromosome 22 open reading frame 23)	1	1.06	1.05	1.05	1.09	inactive
POMK (protein O-mannose kinase)	1	-0.56	-0.33	-0.63	-0.7	inactive
PLOD2 (procollagen-lysine,2-oxoglutarate 5-dioxygenase 2)	1	1.26	1.02	1.55	1.22	inactive
ZBTB7B (zinc finger and BTB domain containing 7B)	1	1.21	1.22	0.93	1.47	inactive
C6orf132 (chromosome 6 open reading frame 132)	1	2.03	1.58	2.04	2.46	active
PHKA1P1 (phosphorylase kinase regulatory subunit alpha 1 pseudogene)	1	3.86	3.94	3.84	3.81	active
GALNT1 (polypeptide N-acetylgalactosaminyltransferase 1)	1	-0.03	-0.04	-0.15	0.1	inactive
SH3TC2-DT (SH3TC2 divergent transcript)	1	1.37	1.47	1.49	1.14	inactive
SKA2 (spindle and kinetochore associated complex subunit 2)	1	0.97	0.71	1.16	1.03	inactive
STK11IP (serine/threonine kinase 11 interacting protein)	1	-0.22	-0.08	-0.1	-0.49	inactive
SLC43A2	1	0.11	-0.15	0	0.47	inactive
DLX6 (distal-less homeobox 6)	1	-0.59	-0.38	-0.75	-0.64	inactive
DLX6 (distal-less homeobox 6)	2	0.37	0.27	0.63	0.21	inactive
MAGT1 (magnesium transporter 1)	1	-0.41	-0.45	-0.25	-0.51	inactive
UNC79 (unc-79 subunit of NALCN channel complex)	1	0.44	1.06	0.51	-0.25	inactive
